Results of unrelated studies side by side (data: NIAID ChemDB).

Common to all: whole-cell or culture tests

Rows are shuffled and stem from different studies.

smiles	agent	strain or isolate	cells	measure	tested at	result
CN[C@H]1C[C@@H](n2cnc3c(N)ncnc32)[C@H](O)[C@@H]1O	Venezuelan equine encephalitis virus	-	HFF	EC50	-	>100 µg/mL
CC(NCNc1ccc2ccccc2c1)C(=O)O	Influenza A virus (H2N2)	A2/ADACHI	CEF	inhibition	244 µg/mL	29.6%
CC(OC(=O)Nc1ccc2ccccc2c1)c1ccc2c(c1)Sc1ccccc1O2	Poliovirus	TYPE 3	BSC-1	inhibition	0.4 µg/mL	20%
CN(C)c1cc(-c2ccc(O)cc2O)on1	African swine fever virus	-	VERO	EC50	-	>227 µM
Cc1cccc(Cn2cnc(=N)c3[nH]cnc32)c1	Vaccinia virus	-	BSC-1	inhibition	25 µg/mL	0%
Cn1cc(NC(=O)c2cc(NC(=O)c3cc(NC(=O)c4cc(NC(=O)c5cc(NC=O)cn5C)cn4C)cn3C)cn2C)cc1C(=O)NCCC(=N)N	Vaccinia virus	Noguchi	BSC-1	inhibition	25 µg/mL	57%
CC(C)O[C@@H]1[C@H](OC(C)C)[C@@H](COS(=O)(=O)NC(=O)O[C@@H]2C[C@@H](OC(=O)c3ccccc3)[C@H](OC(=O)c3ccccc3)[C@@H](COC(=O)c3ccccc3)O2)O[C@H]1n1ccc(=O)[nH]c1=O	African swine fever virus	-	VERO	EC50	-	235 µg/mL
CCN1C(=O)CS/C1=N/N=C1\C(=O)Nc2ccc([N+](=O)[O-])cc21	Yellow fever virus	-	VERO	EC50	-	2.52 µg/mL
CCCCn1cnc(=N)c2[nH]cnc21	Vaccinia virus	-	BSC-1	inhibition	25 µg/mL	0%
Nc1nccc2c1ncn2[C@@H]1O[C@H](CO)[C@@H](O)[C@H]1O	Newcastle disease virus	-	Chick embryo cells	inhibition	30 µM	10.4%
CC12CC[C@H](OS(=O)(=O)O)CC1=CCC1C2CCC2(C)C(C(=O)CO)CCC12	Junin virus	IV4454	VERO	inhibition	80 µg/mL	13.1%
N=c1c2ncn([C@@H]3O[C@H](CO)[C@@H](O)[C@H]3O)c2ncn1OCc1cc(F)cc(F)c1	Variola virus	Isolate Bangladesh	VERO	EC50	-	0.16 µg/mL
CC(=O)N[C@H]1[C@H]([C@H](O)[C@H](O)CO)OC(C(=O)O)=C[C@@H]1N=C(N)N	Influenza A virus	H11N9 A/DK/MEM/546/74	MDCK	EC50	-	0.0065 µM
C[C@@H](SC1COC(/C=C/C=C/c2ccc(C#N)cc2F)OC1)[C@](O)(Cn1cncn1)c1ccc(F)cc1F	Histoplasma capsulatum	50 strains	-	MIC90	-	0.06 µg/mL
NC(=O)c1[nH]nc([C@@H]2O[C@H](CO)[C@@H](O)[C@H]2O)c1O	Japanese encephalitis virus	Nakayama	VERO	EC50	-	0.65 µg/mL
CC1S/C(=N/N=C2\C(=O)Nc3ccc([N+](=O)[O-])cc32)N(c2ccc([N+](=O)[O-])cc2)C1=O	Yellow fever virus	-	VERO	EC50	-	>100 µg/mL
CCC1COC(c2ccc(OCCCCCCC(=O)c3ccc(C)s3)cc2)=N1	Poliovirus	TYPE 1	VERO	EC50	-	>25.06 µM
N=c1ncn(Cc2cccc([N+](=O)[O-])c2)c2nc[nH]c12	Vaccinia virus	-	BSC-1	inhibition	12 µg/mL	0%
CCOc1ccc(-c2onc(N(CC)CC)c2Cc2c(N(CC)CC)noc2-c2ccc(O)cc2O)c(O)c1	African swine fever virus	-	VERO	EC50	-	>17 µM
CC(=O)OC[C@H]1O[C@@H](n2ncc(=O)[nH]c2=O)[C@H](OC(C)=O)[C@@H]1OC(C)=O	Japanese encephalitis virus	Nakayama	VERO	EC50	-	3.5 µg/mL
Cn1cc(NC(=O)c2cc(NC(=O)c3cc(NC=O)cn3C)cn2C)cc1C(=O)NCCC(=N)N	Vaccinia virus	Noguchi	BSC-1	inhibition	200 µg/mL	100%
CC1S/C(=N/N=C2\C(=O)Nc3ccc([N+](=O)[O-])cc32)N(c2ccc(Cl)cc2)C1=O	Yellow fever virus	-	VERO	EC50	-	1.59 µg/mL
CC(=O)O[C@H]1C[C@H](n2cc(C)c(=O)[nH]c2=O)O[C@@H]1COS(=O)(=O)NC(=O)O[C@H]1O[C@H](COCc2ccccc2)[C@@H](OCc2ccccc2)[C@H](OCc2ccccc2)[C@H]1OCc1ccccc1	African swine fever virus	-	VERO	EC50	-	10 µg/mL
Clc1ccc(C2CCc3ccccc3O2)c(Cl)c1	Poliovirus	IA (TYPE 2)	HEP-2	EC50	-	>10 µM
Cc1cn([C@@H]2O[C@H](CO)[C@@H](O)[C@@H]2F)c(=O)[nH]c1=O	Cowpox virus	Brighton	C1271	EC50	-	0.22 µM
CC(C)CCCC(COS(=O)(=O)O)C1CCC2C3CC=C4C[C@H](O)[C@@H](OS(=O)(=O)O)CC4(C)C3CCC12C	Junin virus	IV4454	VERO	inhibition	40 µg/mL	8.7%
Nc1nc(=O)n([C@@H]2O[C@H](CO)[C@@H](O)[C@@H]2O)cc1Cl	Cowpox virus	Brighton	VERO	EC50	-	100 µM
CC(C)=CCC[C@@H](COS(=O)(=O)O)C1CCC2C3CC[C@H]4C[C@H](OS(=O)(=O)O)[C@@H](O)CC4(C)C3CCC21C	Junin virus	IV4454	VERO	inhibition	40 µg/mL	3.5%
O=C(NS(=O)(=O)OC[C@H]1O[C@@H](n2ccc(=O)[nH]c2=O)[C@H](O)[C@@H]1O)O[C@H]1O[C@H](COC(=O)c2ccccc2)[C@@H](OC(=O)c2ccccc2)[C@H](OC(=O)c2ccccc2)[C@H]1OC(=O)c1ccccc1	African swine fever virus	-	VERO	EC50	-	18 µg/mL
Nc1nc(=O)n([C@@H]2C=C(CO)[C@@H](O)[C@H]2O)cc1F	Variola virus	7124	VERO	EC50	-	2.63 µg/mL
Nc1ccn(C[C@@H](CO)OCP(=O)(O)O)c(=O)n1	Variola virus	Isolate Bangladesh	LLC-MK2	EC50	-	3.2 µg/mL
CC(=O)N[C@H]1[C@@H](OC(=O)NS(=O)(=O)OC[C@H]2O[C@@H](n3ccc(=O)[nH]c3=O)[C@H](OC(C)C)[C@@H]2OC(C)C)O[C@H](COC(=O)c2ccccc2)[C@@H](OC(=O)c2ccccc2)[C@@H]1OC(=O)c1ccccc1	African swine fever virus	-	VERO	EC50	-	>100 µg/mL
CC(O)c1ccc2c(c1)S(=O)c1ccccc1O2	Poliovirus	TYPE 3	BSC-1	inhibition	0.4 µg/mL	12%
Clc1ccc(C2COc3ccc(Cl)cc3C2)cc1	Poliovirus	IA (TYPE 2)	HEP-2	inhibition	10 µM	0%
O=c1cnn([C@@H]2O[C@H](CO)[C@@H](O)[C@H]2O)c(=O)[nH]1	Venezuelan equine encephalitis virus	Trinidad donkey	VERO	EC50	-	1.28 µg/mL
CNC(=O)OC(C)c1ccc2c(c1)Sc1ccccc1O2	Poliovirus	TYPE 3	BSC-1	inhibition	2 µg/mL	22%
CC(=O)OC[C@H]1O[C@@H](OC(=O)NS(=O)(=O)OC[C@H]2O[C@@H](n3ccc(=O)[nH]c3=O)[C@H](OC(C)C)[C@@H]2OC(C)C)[C@@H](OC(C)=O)[C@@H](OC(C)=O)[C@@H]1OC(C)=O	African swine fever virus	-	VERO	EC50	-	>100 µg/mL
CC(N)c1ccc2c(c1)Sc1ccccc1O2	Poliovirus	TYPE 3	BSC-1	inhibition	2 µg/mL	23%
CC(C)OC1[C@H](n2ccc(=O)[nH]c2=O)O[C@H](COS(=O)(=O)NC(=O)N[C@@H]2O[C@H](COC(=O)c3ccccc3)[C@@H](OC(=O)c3ccccc3)[C@H](OC(=O)c3ccccc3)[C@H]2OC(=O)c2ccccc2)[C@H]1OC(C)C	African swine fever virus	-	VERO	EC50	-	20 µg/mL
O=C(NS(=O)(=O)OC[C@H]1O[C@@H](n2ccc(=O)[nH]c2=O)[C@H](O)[C@@H]1O)O[C@H]1O[C@H](COC(=O)c2ccccc2)[C@@H](OC(=O)c2ccccc2)[C@H](OC(=O)c2ccccc2)[C@H]1OC(=O)c1ccccc1	African swine fever virus	-	VERO	EC50	-	18 µg/mL
CC(=O)OC[C@H]1O[C@@H](n2ncc(=S)[nH]c2=S)C(OC(C)=O)C1OC(C)=O	Japanese encephalitis virus	Nakayama	VERO	EC50	-	245 µg/mL
Clc1ccc(C2COc3ccccc3C2)cc1	Poliovirus	SABIN (TYPE 2)	HEP-2	EC50	-	>10 µM
CC(O)c1cccc(Cc2ccccc2)c1	Poliovirus	TYPE 3	BSC-1	inhibition	0.4 µg/mL	22%
Nc1ccn([C@@H]2C=C(CO)[C@@H](O)[C@H]2O)c(=O)n1	Monkeypox virus	MPX	VERO	EC50	-	<0.05 µg/mL
Nc1nc(=O)n([C@@H]2C=C(CO)[C@@H](O)[C@H]2O)cc1Cl	Variola virus	7124	-	EC50	-	>100 µg/mL
CCOc1ccc(-c2cc(N(CC)CC)no2)c(O)c1	African swine fever virus	-	VERO	EC50	-	>362 µM
CC(=O)OC1C(OC(C)=O)[C@@H](COS(=O)(=O)NC(C)C)O[C@H]1n1ccc(=O)[nH]c1=O	African swine fever virus	-	VERO	EC50	-	100 µg/mL
O=c1cc(/C=C/c2ccccc2)c2ccc3occ(-c4ccc(-c5ccccc5)cc4)c3c2o1	Japanese encephalitis virus	-	-	EC50	-	7.8 µg/mL
CC(C)C(=O)Nc1ncc(Cc2ccccc2)s1	Histoplasma capsulatum	-	-	MIC50	-	6.27 µM
Cc1ccc(C(=O)CCCCOc2ccc(C3=NCC(C)O3)cc2)s1	Poliovirus	TYPE 3	VERO	EC50	-	1.54 µM
O=c1cnn([C@@H]2O[C@H](COP(=O)(O)O)[C@@H](O)[C@H]2O)c(=O)[nH]1	Japanese encephalitis virus	Nakayama	VERO	EC50	-	1.86 µg/mL
Nc1ccn(C[C@H]2COP(=O)(O)CO2)c(=O)n1	Variola virus	Isolate 7125	VERO	EC50	-	24 µg/mL
COc1ccc(-c2cc(N3CCCCC3)no2)c(O)c1	African swine fever virus	-	VERO	EC50	-	>364 µM
COC(=O)c1ncn([C@H]2O[C@@H](COCc3ccccc3)[C@H](OCc3ccccc3)[C@@H]2OCc2ccccc2)c1C(=O)OC	Ebola virus	-	-	EC50	-	19 µg/mL
Nc1ncnc2c1nc(Cl)n2[C@@H]1O[C@H](CO)[C@@H](O)[C@H]1O	Cowpox virus	Brighton	C1271	EC50	-	32 µM
CNC(=S)N=Nc1c(O)[nH]c2ccc([N+](=O)[O-])cc12	Yellow fever virus	-	VERO	EC50	-	>100 µg/mL
N=C(N)c1ncn([C@@H]2O[C@H](CO)[C@@H](O)[C@H]2O)n1	Variola virus	-	-	EC50	-	1–100 µM
CC(C)O[C@@H]1[C@H](OC(C)C)[C@@H](COS(=O)(=O)NC(=O)O[C@H]2O[C@H](COC(=O)c3ccccc3)[C@H](OC(=O)c3ccccc3)[C@H](OC(=O)c3ccccc3)[C@H]2OC(=O)c2ccccc2)O[C@H]1n1ccc(=O)[nH]c1=O	African swine fever virus	-	VERO	EC50	-	25 µg/mL
Cc1ccc(N2C(=O)CS/C2=N/N=C2\C(=O)Nc3ccc([N+](=O)[O-])cc32)cc1	Yellow fever virus	-	VERO	EC50	-	4 µg/mL
C/C(=N\O)c1ccc2c(c1)Sc1ccccc1O2	Poliovirus	TYPE 3	BSC-1	inhibition	2 µg/mL	94%
Cc1ccc(C(=O)CCCCCCOc2ccc(C3=NCCO3)cc2Cl)s1	Poliovirus	TYPE 1	VERO	EC50	-	24.63 µM
CC(=O)c1ccc(Oc2ccccc2)cc1	Poliovirus	TYPE 3	BSC-1	inhibition	2 µg/mL	100%
Nc1ccn([C@@H]2C=C(CO)[C@@H](O)[C@H]2O)c(=O)n1	Variola virus	Bangladesh 1975	-	EC50	-	0.03 µg/mL
Brc1ccc(C2=Cc3cc(Br)ccc3OC2)cc1	Poliovirus	TYPE 2	HEP-2	EC50	-	>10 µM
CC12CC[C@H](OS(=O)(=O)O)CC1=CCC1C2CCC2(C)C(C(=O)COS(=O)(=O)O)CCC12	Junin virus	IV4454	VERO	inhibition	40 µg/mL	14%
Cc1ccc(C(=O)CCCCOc2ccc(C3=N[C@@H](C)CO3)cc2)s1	Poliovirus	TYPE 3	VERO	EC50	-	0.56 µM
CCn1cnc(=N)c2[nH]cnc21	Vaccinia virus	-	BSC-1	inhibition	100 µg/mL	0%
Cc1cn([C@@H]2O[C@H](CO)[C@@H](O)[C@@H]2O)c(=O)[nH]c1=O	Cowpox virus	Brighton	C1271	EC50	-	1 µM

MIC50, MIC90 and the like: level of inhibition, or share of isolates inhibited. An empty or dashed field is not shown. a–b is a range or a potency band. Percent inhibition refers to the dose given; in toxicity tests it is the harm to the cells. ECn is the concentration giving n% inhibition of infection, replication or growth.